Construct, isoform or probe ends are uncertain for at least one entry.
What was measured:
[1] = system: ComE D58E (phosphomimetic) + SPD_1495; test: EMSA; details: 5 mM MgCl2, poly(dI-dC), stronger than ComE D58E alone; recombinant protein; protein details: GST removed by thrombin (pGEX-4T-1); label: 5'-biotin (on cpsF primer); probe letters rebuilt from the primers and the genome
[2] = biological target: ComE D58E (phosphomimetic) (UniProt Q79CK7); test: EMSA; details: 5 mM MgCl2, poly(dI-dC), weaker than with SPD_1495; recombinant protein; residues 1-250; label: 5'-biotin (on cpsF primer); probe letters rebuilt from the primers and the genome

## TACACATCTGCTTCTAAAATATTGTTAGAAAACGATTTGACTGTCCTGATCAATTTGTCATGTTCTTATTTCATTTTACTATATTTTTGGTTCGCGGGAAGTCTACTAAGATACTTAAAGATGCAGATAGTGAAAAAAGGTGTAGACATTACCGTAAAAAAGTGATATAATCGTAAGATGTTCAATGTATAGGTGTTAATCATGAGTAGACGTTTTAA (double strand) [Bio-cps (cps upstream promoter)]
[1]
  binding result: binds
[2]
  binding result: binds

From publication PMC7043342
